PSTVd loop 15 mutant pool in Nicotiana benthamiana

PSTVd intermediate strain, loop 15: wild type GGAAACCGCUACUAC, pool pattern GGAAACCGNNNNNNC; upper and lower strand joined, each 5' to 3', the first 7 letters being the upper strand, closing pairs included.

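A pool of all variants was put on leaves of three Nicotiana benthamiana plants. Progeny were sequenced from the inoculated region (day 5), the margin of the inoculated leaf (day 10) and systemic leaves (day 12).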

Numbers give reads per thousand; 0 = not seen among the reads, higher = more abundant.
Each site shows the three plants.
"Pool" is the share in the plasmid pool used as inoculum, on the same scale.
The inoculated region was read from the minus strand, the other sites from the plus strand.
IR is the inoculated region, LM the leaf margin, Sys the systemic leaves.

sequence | pool | IR | LM | Sys
GGAAACCGUGGAGCC | 0.192 | 0.0328 0.0643 0.0952 | 0.0162 0 0.0200 | 0 0 0
GGAAACCGUGGAGGC | 0.320 | 0.0491 0.0643 0.0571 | 0.0162 0 0 | 0 0 0
GGAAACCGUGGAGUC | 0.336 | 0.0655 0.0803 0.171 | 0 0 0.0200 | 0 0 0
GGAAACCGUGGAUAC | 0.288 | 0.328 0.209 0.286 | 0.129 0.0891 0.100 | 0.0161 0.0908 0.137
GGAAACCGUGGAUCC | 0.256 | 0.131 0.0643 0.133 | 0 0 0.0200 | 0 0 0
GGAAACCGUGGAUGC | 0.176 | 0.0491 0.0803 0.0952 | 0 0 0 | 0 0 0
GGAAACCGUGGAUUC | 0.208 | 0.0819 0.0643 0.0952 | 0.0162 0 0.0200 | 0 0 0
GGAAACCGUGGCAAC | 0.176 | 0.0655 0.112 0.114 | 0.0485 0.0223 0 | 0.0161 0 0
GGAAACCGUGGCACC | 0.240 | 0.115 0.0643 0.0381 | 0 0 0.0401 | 0 0 0
GGAAACCGUGGCAGC | 0.240 | 0.0819 0.129 0.133 | 0 0 0.0200 | 0 0 0
GGAAACCGUGGCAUC | 0.208 | 0.147 0.193 0.0952 | 0 0 0.0200 | 0 0 0
GGAAACCGUGGCCAC | 0.128 | 0.147 0.0643 0.190 | 0 0 0.0801 | 0 0 0
GGAAACCGUGGCCCC | 0.160 | 0.0819 0.145 0.0381 | 0 0 0.0200 | 0 0 0
GGAAACCGUGGCCGC | 0.320 | 0.131 0.145 0.0571 | 0 0 0.0200 | 0 0 0
GGAAACCGUGGCCUC | 0.240 | 0.0655 0.0643 0.114 | 0.0485 0.0445 0.0200 | 0.0161 0 0
GGAAACCGUGGCGAC | 0.224 | 0.0491 0.0482 0.0952 | 0.0323 0 0 | 0 0 0
GGAAACCGUGGCGCC | 0.192 | 0.0491 0.112 0.0952 | 0 0.0223 0 | 0 0 0
GGAAACCGUGGCGGC | 0.176 | 0.229 0.209 0.133 | 0 0.0223 0 | 0 0 0
GGAAACCGUGGCGUC | 0.224 | 0.115 0.0803 0.0762 | 0.0162 0.0223 0 | 0.0161 0 0
GGAAACCGUGGCUAC | 0.208 | 0.262 0.353 0.305 | 0.162 0.0891 0.0401 | 0.0483 0.0454 0.0456
GGAAACCGUGGCUCC | 0.144 | 0.0983 0.0482 0.0571 | 0.0162 0.0223 0.0401 | 0 0 0
GGAAACCGUGGCUGC | 0.272 | 0.0655 0.0803 0.0952 | 0 0 0.0200 | 0 0 0
GGAAACCGUGGCUUC | 0.224 | 0.147 0.112 0.171 | 0 0 0 | 0 0 0
GGAAACCGUGGGAAC | 0.192 | 0.115 0.0643 0.0952 | 0 0 0.0801 | 0 0 0
GGAAACCGUGGGACC | 0.288 | 0.0983 0.0643 0.114 | 0.0162 0.0223 0 | 0 0 0
GGAAACCGUGGGAGC | 0.224 | 0.115 0.161 0.0762 | 0 0.0223 0 | 0 0 0
GGAAACCGUGGGAUC | 0.240 | 0.0491 0.145 0.0381 | 0 0 0 | 0 0 0
GGAAACCGUGGGCAC | 0.240 | 0.0819 0.0482 0.114 | 0.0485 0 0 | 0.0161 0 0
GGAAACCGUGGGCCC | 0.208 | 0.0983 0.161 0.171 | 0 0 0 | 0.0161 0 0
GGAAACCGUGGGCGC | 0.160 | 0.0655 0.0964 0.0762 | 0.0162 0.0223 0 | 0 0 0
GGAAACCGUGGGCUC | 0.304 | 0.0491 0.0803 0.0571 | 0 0 0 | 0 0 0
GGAAACCGUGGGGAC | 0.208 | 0.147 0.145 0.209 | 0 0.0223 0.0200 | 0 0 0
GGAAACCGUGGGGCC | 0.144 | 0.115 0.0803 0.0381 | 0 0 0.120 | 0 0 0
GGAAACCGUGGGGGC | 0.176 | 0.115 0.0482 0.114 | 0 0 0.0200 | 0 0 0
GGAAACCGUGGGGUC | 0.272 | 0.0655 0.0803 0.171 | 0.0162 0.0223 0 | 0 0 0
GGAAACCGUGGGUAC | 0.0800 | 0.213 0.289 0.362 | 0.0647 0.111 0.160 | 0.0322 0.0605 0.0912
GGAAACCGUGGGUCC | 0.208 | 0.131 0.0803 0.0952 | 0.0162 0 0.0401 | 0 0 0
GGAAACCGUGGGUGC | 0.288 | 0.311 0.369 0.343 | 0.113 0.0668 0.100 | 0.0644 0 0
GGAAACCGUGGGUUC | 0.224 | 0.344 0.241 0.362 | 0.0808 0.0668 0.0801 | 0.0161 0.0454 0.0912
GGAAACCGUGGUAAC | 0.256 | 0.0328 0.0321 0.0190 | 0.0162 0.0223 0.0200 | 0 0 0
GGAAACCGUGGUACC | 0.192 | 0.0983 0.209 0.152 | 0 0 0.0200 | 0 0 0
GGAAACCGUGGUAGC | 0.176 | 0.115 0.112 0.114 | 0 0.0445 0 | 0 0 0
GGAAACCGUGGUAUC | 0.192 | 0.131 0.145 0.0381 | 0 0.0445 0 | 0 0 0
GGAAACCGUGGUCAC | 0.176 | 0.131 0.145 0.0952 | 0 0 0 | 0.0161 0 0.0228
GGAAACCGUGGUCCC | 0.176 | 0.0328 0.0964 0.0190 | 0 0 0 | 0 0 0
GGAAACCGUGGUCGC | 0.320 | 0.311 0.386 0.152 | 0 0 0 | 0 0 0

Extract of 4 entries:

- GGAAACCGUGGCAGC (pool 0.240): IR 0.0819 0.129 0.133; LM 0 0 0.0200; Sys 0 0 0
- GGAAACCGUGGUCGC (pool 0.320): IR 0.311 0.386 0.152; LM 0 0 0; Sys 0 0 0
- GGAAACCGUGGAGCC (pool 0.192): IR 0.0328 0.0643 0.0952; LM 0.0162 0 0.0200; Sys 0 0 0
- GGAAACCGUGGAGUC (pool 0.336): IR 0.0655 0.0803 0.171; LM 0 0 0.0200; Sys 0 0 0

Wild type was 33.9 per thousand in the pool and the most common sequence in every sample (inoculated region 202, 200, 159; leaf margin 724, 746, 710; systemic leaves 856, 883, 880).
Samples held 43,870 to 66,106 reads, so the smallest values rest on one or two reads.
The authors trace changes outside the varied positions to PCR and sequencing errors or to mutation in the plant; presence does not show that a variant is infectious alone.

The measurements come from Wu et al. 2024 (doi:10.1371/journal.ppat.1012142).